# Source: ChEMBL document CHEMBL3407432, “Fused heterocycles bearing bridgehead nitrogen as potent HIV-1 NNRTIs. Part 3: optimization of [1,2,4]triazolo[1,5-a]pyrimidine core via structure-based and physicochemical property-driven approaches” (Eur J Med Chem, 2015)
# pIC50: −log10 of the molar value.
# Biological target: Human immunodeficiency virus type 1 reverse transcriptase (Human immunodeficiency virus 1, UniProt Q72547)
# Experiment: Inhibition of HIV1 reverse transcriptase assessed as reduction in biotin-labeled dUTP incorporation into DNA after 1 hr using poly(A) x oligo(dT)15 template/primer hybrid, digoxigenin and biotin-labeled nucleotides
# How it was run: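 Recombinant HIV-1 RT, colorimetric ELISA kit. Poly(A)·oligo(dT)15 template/primer with biotin- and DIG-labelled dNTPs in lysis buffer ± inhibitor, 1 h at 37 °C. Serial five-fold dilutions tested. IC50 is the concentration halving labelled dUTP incorporation.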
compound,measurement,value
Cc1cc(C#N)cc(C)c1Oc1nc(Nc2ccc(C#N)cc2)nc(N)c1Br [ETRAVIRINE],pIC50,7.05
